Reference: article PMC3590139, “Isocitrate Dehydrogenase from Streptococcus mutans: Biochemical Properties and Evaluation of a Putative Phosphorylation Site at Ser102” (PLoS ONE, 2013)

Tests used:
[1] = test system: NC(=O)c1ccc[n+]([C@@H]2O[C@H](COP(=O)(O)OP(=O)(O)OC[C@H]3O[C@@H](n4cnc5c(N)ncnc54)[C@H](O)[C@@H]3O)[C@@H](O)[C@H]2O)c1; experiment: purified protein; details: saturating DL-isocitrate, 35 mM Tris-HCl pH 7.5, 3.5 mM MnCl2, 37 °C
[2] = test system: O=C(O)CC(C(=O)O)C(O)C(=O)O; experiment: purified protein; details: saturating NAD+, 35 mM Tris-HCl pH 7.5, 3.5 mM MnCl2, 37 °C

Work on “SmIDH (Streptococcus mutans UA159; S102A)” yielded a Km [1] of 246 µM, a kcat [1] of 3 s⁻¹ and a kcat/Km [1] of 10000 M⁻¹ s⁻¹. The Km [2] was 148 µM, the kcat [2] was 3.3 s⁻¹ and the kcat/Km [2] was 22000 M⁻¹ s⁻¹.

“SmIDH (Streptococcus mutans UA159; S102G)” was tested, and the Km [1] was 295 µM, the kcat [1] was 9.1 s⁻¹ and the kcat/Km [1] was 30000 M⁻¹ s⁻¹. The Km [2] was 143 µM, the kcat [2] was 4 s⁻¹ and the kcat/Km [2] was 28000 M⁻¹ s⁻¹.

For “SmIDH (Streptococcus mutans UA159; S102T)”, the Km [1] was 350 µM, the kcat [1] was 59 s⁻¹ and the kcat/Km [1] was 170000 M⁻¹ s⁻¹. For the same substance, the Km [2] was 150 µM, the kcat [2] was 25 s⁻¹ and the kcat/Km [2] was 170000 M⁻¹ s⁻¹.

Substance “SmIDH (Streptococcus mutans UA159; S102Y)” has a Km [1] of 1560 µM, a kcat [1] of 3.5 s⁻¹ and a kcat/Km [1] of 2000 M⁻¹ s⁻¹. The Km [2] was 385 µM, the kcat [2] was 1.5 s⁻¹ and the kcat/Km [2] was 4000 M⁻¹ s⁻¹.
